Tests used:
adult female B. pahangi = experiment: Mf output by adult female B. pahangi cultured in vitro with drug; details: GA at 1 µM; PU-H71 and PU-DZ8 at 5 and 10 µM; three-day period
adult B. pahangi = experiment: Condition and activity of adult B. pahangi worms in vitro
B. pahangi Mf = experiment: Mortality of purified B. pahangi Mf incubated in drug; details: day 7
Brugia Hsp90 = Brugia Hsp90 (Brugia pahangi, UniProt O61998); details: inhibition of cy3B-GA binding to Brugia Hsp90

CC(C)NCCCn1c(Cc2cc3c(cc2I)OCO3)nc2c(N)nc(F)nc21
effect on Mf release (adult female B. pahangi): profound effect | activity of adult worms (adult B. pahangi; 5.0 µM): less of an effect | activity of adult worms (adult B. pahangi; 10 µM): markedly less active | Mf dead (B. pahangi Mf; 5.0 µM): 50% | Mf dead (B. pahangi Mf; 10 µM): 95% | potency fold lower than GA (Brugia Hsp90): 8 fold

Reference: publication PMC2886105, “Assay Strategies for the Discovery and Validation of Therapeutics Targeting Brugia pahangi Hsp90” (PLoS Neglected Tropical Diseases, 2010)
